This passage reports EC50 results from patent publication CN117659177A.

Test [1] concerns the target 重组猴痘病毒表面蛋白M1R-His (Monkeypox virus). Briefly: ELISA, M1R-His coated at 2 μg/mL, antibody titrated. A general note: An ELISA detects its analyte on a solid surface through an enzyme-linked reagent.
In test [2] the target is 生物素化蛋白M1R-His-Biotin (Monkeypox virus). Briefly: ELISA, M1R-His-Biotin coated at 2 μg/mL, antibody titrated.

A word on the EC50: it is the concentration needed to bring the measured effect to its halfway point. Low values mean a more potent agent, high ones a less potent agent. “Anti-Monkeypox virus/MPXV M1R Antibody (普健生物, 货号 SAA0283)”: the results for the EC50 in test [1] and in test [2] were 0.025 µg/mL and 0.024 µg/mL, respectively.
